Experimental data from the supplement of paper PMC9931576.
Human monoclonal antibodies against the spike receptor-binding domain (heavy:light variable regions). IC50 against pseudoviruses bearing the spike of naturally observed variants; lower = stronger; >10 µg/ml means not reached at the top dose. No active / inactive call. The stated detection limit is 0.0005 µg/ml; values near or below 0.001 µg/ml lie at the floor of the assay.

B1: BD57-003 (protein)
chain 1: QVRLVESGGGVVQPGRSLRLSCAASGFTFSNYGIHWVRQAPGKGLEWVAVVSYDGSNKYYADSVKGRFTISRDNSKNTLYLQMNSLRTEDTAVYYCAKGLGELLQYYYGVDVWGQGTTVTV
chain 2: DIQMTQSPSSLSASVGDRVTITCRASQSISYYLNWYQQKPGKAPKLLIYDASSLQSGVPSRFSGGGSGTDFTLTISSLQPEDFATYHCQQNYNTPPTFGQGTKLEIK
B2: BD57-006 (protein)
chain 1: EVQLLESGGGLVQPGGSLRLSCAASGFTFSNFAMSWVRQAPGKGLEWVSVIYSRGGSSNYADSVKGRFTISRDNSKNTLYLQMNSLRAEDTAVYYCAKLCDSSGYYWVEDAFDIWGQGTMVTVSS
chain 2: QSVLTQPPSASGTPGQRVTISCSGSSSNIGNNYVYWYQQLPGTAPKLLIYKNNERPSGVPDRFSGSKSGTSASLAISGLRSEDEADYYCATWDDSLSGRVFGTGTKVTVL
B3: BD57-012 (protein)
chain 1: QMQLVQSGPEVKKPGTSVKVSCKASGFTFTSSAVQWVRQARGQRLEWIGWIVVGSGNTNYAQKFQERVTISRDESTSTAYMELSSLRSEDTAVYYCAAPYCTGGTCNDGFDIWGQGTLVTVSS
chain 2: EIVLTQSPGTLSLSPGERATLSCRASQSVTSSYLAWYQQKPGQAPRVLIYGASSRATGIPDRFSGSGSGTDFTLTISRLEPEDFAVYYCQQYGRSPWTFGQGTKVEIK
B4: BD57-017 (protein)
chain 1: QVQLVQSGAEVKKPGSSVKVSCKASGGTFSSYAINWVRQAPGQGLEWMGRIISMFDIANYAQNFQGRVTITADKSTSTAYMELNSLRSEDTAVYYCATTKFFYETGVGYYFDYWGQGTLVTVSS
chain 2: EIVLTQSPGTLSLSPGERATLSCRASQNLSSNYLAWYQQKPGQAPRLLIYGASSRATGIPDRFSGSGSGTDFILTISRLEPEDFAVYYCQQYDTSRTFGQGTKVEIK
B5: BD57-018 (protein)
chain 1: EVQLVESGGGLVQPGGSLRLSCAASGIIVSRNYMNWVRQAPGKGLEWVSVLYSGGSTFYADSVKGRFTISRDNSKNTLYLQMNSLRVEDTAVYYCARETTAVAGVGLFFDYWGQGTLVTVSS
chain 2: DIQMTQSPSSLSASVGDRVTITCQASQGISNYLNWYQQKPGKAPKLLIYDASNLQTGVPSRFSGSGSGTYFIFTISSLQPDDIATYYCQHYDNLPTRTFGQGTKVEIK
B6: BD57-020 (protein)
chain 1: QVQLVESGGGVVQPGRSLRLSCAASGFTFRIYAMHWVRQAPGKGLEWVSVIWNDGTKKNYADSVKGRFTISRDNSQKTLYLQMNSLRAEDTAVYYCAREGIAAGGNSVDAFDIWGQGTTVTVSS
chain 2: DIQMTQSPSSLSASVGDRVTITCRASQSIGMFLNWYQQKPGKAPKVLIYAASTLQGGVPSRFSGSGSGTVFTLTISSLQPEDFAIYYCQQSYGASYTFGQGTKLEIK

What was measured:
Experiment in all cases: pseudovirus neutralization IC50; higher = weaker neutralization
[1] = target: SARS-CoV-2 Omicron BA.1 spike pseudovirus
Procedure: (§1)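 Single-round VSV luciferase pseudovirus mixed with antibody dilutions for 1 h and put on Huh-7 cells for about a day; IC50 from the dose curve.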

[2] = target: SARS-CoV-2 Omicron BA.2 spike pseudovirus
Procedure: as §1

[3] = target: SARS-CoV-2 Omicron BA.2.75 spike pseudovirus
Procedure: as §1

[4] = target: SARS-CoV-2 Omicron BA.5 spike pseudovirus
Procedure: as §1

[5] = target: SARS-CoV-2 Omicron BQ.1.1 spike pseudovirus
Procedure: as §1

[6] = target: SARS-CoV-2 Omicron XBB spike pseudovirus
Procedure: as §1

[7] = target: SARS-CoV-2 early D614G spike pseudovirus
Procedure: as §1

Binder	pseudovirus neutralization IC50 [1] [µg/mL]	pseudovirus neutralization IC50 [2] [µg/mL]	pseudovirus neutralization IC50 [3] [µg/mL]	pseudovirus neutralization IC50 [4] [µg/mL]	pseudovirus neutralization IC50 [5] [µg/mL]	pseudovirus neutralization IC50 [6] [µg/mL]	pseudovirus neutralization IC50 [7] [µg/mL]
B1	0.0398	0.0394	0.0641	1.17	3.95	> 10	0.00205
B2	0.00426	0.00205	0.00283	> 10	> 10	> 10	0.001
B3	0.00601	0.00476	0.000932	5.92	> 10	> 10	0.00129
B4	0.0318	0.0788	0.0109	> 10	> 10	> 10	0.006
B5	0.0824	0.141	> 10	0.478	> 10	> 10	0.0164
B6	1.02	1.65	1.15	1.64	> 10	> 10	0.00421
